{"source": "patent US11510929B2", "about": "“Mitigation of epileptic seizures by combination therapy using benzodiazepines and neurosteroids” (dated 2022)", "key": {"[1]": {"test_system": "hippocampal neurons", "experiment": "Mitigation of TETS-induced Ca2+ dysregulation, agents added 10 min prior to TETS (FLIPR Fluo-4)", "conditions": "for effect on Phase I or Phase II Ca2+ dysregulation, single agent: 0.1 μM by itself; for effect on Phase I plateau response: single agent, up to 1 μM"}, "[2]": {"test_system": "TETS-intoxicated animals", "experiment": "TETS-induced seizures and death in mice", "conditions": "for TETS-intoxicated animals protected from death, pretreatment: 0.1 mg/kg i.p. 10 minutes before TETS injection"}, "[3]": {"test_system": "hippocampal neurons", "experiment": "Mitigation of TETS-induced Phase II Ca2+ response, agents added post-TETS (FLIPR Fluo-4)", "conditions": "post-TETS addition, TETS 3 μM; for effect on TETS-induced decreased Ca2+ oscillation frequency: 0.1 μM each agent"}, "[4]": {"conditions": "pre-exposure 0.03-1 μM, TETS 3 μM"}}}
{"smiles": "CN1C(=O)CN=C(c2ccccc2)c2cc(Cl)ccc21", "values": [{"measurement": "effect on Phase I or Phase II Ca2+ dysregulation, single agent", "setting": "[1]", "value": "minimal effects"}, {"measurement": "effectiveness alone at the highest concentration tested", "setting": "[1]; 1 μM", "value": "neither diazepam nor allopregnanolone alone was fully effective"}, {"measurement": "effect on basal spontaneous Ca2+ oscillations", "setting": "[1]; 0.1, 0.3, or 1 μM", "value": "attenuation in the amplitude of basal spontaneous Ca2+ oscillations"}, {"measurement": "effect on Phase I integrated rise in Ca2+ induced by TETS", "setting": "[1]; [4]", "value": "small concentration-dependent reduction"}, {"measurement": "effect on Phase II frequency and amplitude effects of TETS", "setting": "[1]; [4]", "value": "partial inhibition"}, {"measurement": "concentration at which effect on Phase II amplitude reached significance", "setting": "[1]; pre-exposure, TETS 3 μM", "value": 0.1, "unit": "µM"}, {"measurement": "concentration at which reduction of Phase I integrated rise reached statistical significance", "setting": "[1]; pre-exposure, TETS 3 μM", "value": 1, "unit": "µM"}, {"measurement": "effect on Phase I plateau response", "setting": "[1]; TETS 3 μM", "value": "did not eliminate"}, {"measurement": "TETS-intoxicated animals protected from death", "setting": "[2]; 0.03 mg/kg immediately following the second clonic seizure, survival at 24 h", "value": "< 10", "unit": "%"}, {"measurement": "TETS-intoxicated animals protected from death, pretreatment", "setting": "[2]; survival at 24 h", "value": "< 30", "unit": "%"}, {"measurement": "rescue from TETS-induced death", "setting": "[2]; 5 mg/kg, i.p., immediately following the second clonic seizure", "value": "rescued"}, {"measurement": "effect on TETS-induced decreased Ca2+ oscillation frequency", "setting": "[3]", "value": "without significant effect"}]}
{"smiles": "C[C@]12N[C@H](Cc3ccccc31)c1ccccc12", "values": [{"measurement": "effect on basal Ca2+ oscillations", "setting": "[1]; 1 μM", "value": "slightly suppressed"}, {"measurement": "effect on TETS-induced Phase I and Phase II Ca2+ responses", "setting": "[1]; 1 μM, preincubation 10 min, TETS 3 μM", "value": "attenuated both Phase I and Phase II effects of TETS"}]}
{"smiles": "CC(=O)[C@H]1CC[C@H]2[C@@H]3CC[C@H]4C[C@H](O)CC[C@]4(C)[C@H]3CC[C@]12C", "values": [{"measurement": "mitigation of Phase I response induced by TETS compared with diazepam", "setting": "[1]", "value": "more effective"}, {"measurement": "effect on Phase I or Phase II Ca2+ dysregulation, single agent", "setting": "[1]", "value": "minimal effects"}, {"measurement": "Phase II effect of TETS on amplitude", "setting": "[1]; 1 μM", "value": "completely reversed"}, {"measurement": "effect on TETS response in Phase I", "setting": "[1]; 1 μM", "value": "partially attenuated"}, {"measurement": "effectiveness alone at the highest concentration tested", "setting": "[1]; 1 μM", "value": "neither diazepam nor allopregnanolone alone was fully effective"}, {"measurement": "effect on basal spontaneous Ca2+ fluctuations", "setting": "[1]; 0.1-1 μM", "value": "concentration-dependent suppression"}, {"measurement": "effect on Phase II effect of TETS on frequency and amplitude", "setting": "[1]; 0.3 and 1 μM", "value": "inhibited"}, {"measurement": "effect on Phase I plateau response", "setting": "[1]; TETS 3 μM", "value": "without eliminating"}, {"measurement": "TETS-intoxicated animals protected from death, pretreatment", "setting": "[2]; survival at 24 h", "value": 50, "unit": "%"}, {"measurement": "protection from death compared with low dose diazepam", "setting": "[2]; post-administration 0.03 mg/kg", "value": "no more efficacious than low dose diazepam"}, {"measurement": "decrease of TETS-induced Ca2+ oscillation amplitude", "setting": "[3]; 0.1 μM alone, p<0.01", "value": 20, "unit": "%"}, {"measurement": "effect on TETS-induced decreased Ca2+ oscillation frequency", "setting": "[3]", "value": "without significant effect"}]}
